Assay results: the supplement of paper PMC9931576
Positions count from the first letter of the chain named. Human monoclonal antibodies against the spike receptor-binding domain (heavy:light variable regions). IC50 against pseudoviruses bearing the spike of naturally observed variants; lower = stronger; >10 µg/ml means not reached at the top dose. No active / inactive call. The stated detection limit is 0.0005 µg/ml; values near or below 0.001 µg/ml lie at the floor of the assay.

B1: BD58-0573 (protein)
chain 1: EVQLVESGGGLIQPGGSLRLSCAASGVTVSRNYMSWVRQAPGKGLEWVSLIYSGGSTFYADSVKGRFTISRDNSKNTLYLQMNSLRAEDTAVYYCARDRYSGMDVWGQGTTVTVSS
chain 2: DIQMTQSPSSLSASVGDRVTITCQASQDINNFLNWYQQKPGKAPKLLIYDASNLEAGVPSRFSGSGSGTDFTFTISSLQPEDIATYFCQQYDNLPYTFGQGTKLETK
B2: BD56-1225 (protein)
chain 1: QVQLVQSGAEVKKPGASVKVSCKASGYTFSMYYIHWVRQAPGQGLEWLGIINPDAGSTSYAQQFQGRVTMTRDTSTSAVYMELRNLRSEDSAVYYCARPAAGIPAARSAFDFWGQGTMVTVSS
chain 2: DIQMTQSPSTLSASVGDRVTITCRASQTISSWLAWYQQKPGKAPKLLIYKASTLESGVPSRFTGSGSGTEFSLTISSLQPDDFATYYCQQYNTYSWTFGQGTRVEIK
B3: BD56-1228 (protein)
chain 1: QVQLVQSGAEVKKPGASVKVSCKASGYTFTNYYMHWVRQAPGQGLEWMGIINPSAGSTTYAQRFQGRVTMTSDTSTGTVYMELSRLRSDDTAVYFCARDGAFLPALDAFDIWGQGTMVTVSS
chain 2: DIVLTQSPGTLSLSPGERATLSCRASESISRSYLAWYQQKVGQAPRLLIYAASSRATGIPDRYTGSGSGTDFTLTISRLEPEDFAVYYCQQYGRSFAYTFGQGTKLEIK
B4: BD58-0577 (protein)
chain 1: QMQLQESGPGLVKPSQTLSLTCTVSGASISSANYYWNWIRQPAGKGLEWIGRIYIYASGSSNYSPSLKSRVSISVDTSKKQFSLKLSSVSAADTAVYYCATSPRDDFWRFDHWGHGTLVTVSS
chain 2: NFMLTQPHSVSGSPGKTLTISCTRSGGSIATNYVQWYQQRPGSSPTTVIYDNNQRPSGVPDRFSGSIDSSSNSASLTISGLKTEDEADYHCQSFALNNVIFGGGTKLTVL
B5: BD56-1180 (protein)
chain 1: EVQLVQSGAEVKKPGESLKISCKGSGYSFIIYWIGWVRQMPGQGLEYMGIIYPGDSDTRYSPSFQGQVTISADKSISTAYLQWSSLKASDTAIYYCARGGYYDTFDIWGQGTMVTVSS
chain 2: DIVMTQSPATLSVSPGERATLSCRASQSISSDLAWYQQKPGQAPRLLIYHASTRATGIPARFSGSGSGTEFTLTISSLQSEDSAVYYCQQYNNWPLFGGGTKVEIK
B6: BD58-0580 (protein)
chain 1: QVQLQESGPGLVKPSETLSLTCTVSGGSISSYYWSWIRQPPGKGLEWIGYIYYTGNTNYNPSLKSRVTISVDTSKNQFSLMLNSVTAADTAVYYCARAAPPDSYYYYYYMDVWGKGTTVTVSS
chain 2: QSALTQPASVSGSPGQSITISCTGTSSDVGSYNLVSWYQQHPGTAPKLMIYEVTKRPSGVSDRFFGSKSGNTASLTIFGLQAEDEADYYCCSYVGSNTLVFGGGTKLTVL
B7: CV07-315 (protein)
chain 1: EVQLVESGGGLVQPGRSLRLSCAASGFTFDDYAMHWVRQAPGKGLEWVSGISWNSGSIGYADSVKGRFTISRDNAKNSLYLQMNSLRAEDTALYYCAKDFLWDLHPPRYYGMDVWGQGTTVTVSS
chain 2: QSVLTRPPSVSAAPGQKVTISCSGSSSNIGNNYVSWYQQLPGTAPKLLIYENNKRPSGIPDRFSGSKSGTSATLGITGLQTGDEADYYCGTWDSSLNGVFGGGTKLTVL
B8: BD58-0584 (protein)
chain 1: QVQLLESGGGVVQPGKSLRLSCAASGFTFRTYGMHWVRQAPGKGLEWLALISYHGGNEYYADSVKGRITISRDNAKNTLYLQINSLRPEDTAVYYCAKGSYYYDSSGQYVDGFEYWGPGTLVIVSS
chain 2: DIQMTQSPSSLSASVGDRVTITCRASQSIGTYLNWFQQRPGKAPKLLIYGASSLQSGVPSTFSGGGSGTDFTLTISSLQPEDFATYYCQQSYSTPLTFGGGTKVEIK
B9: BD56-1222 (protein)
chain 1: EVQVVESGGRLVKPGGSLRLSCAASGFNFRTYNMNWLRQAPGKGLEWVSSIGATGSYRNYADSVRGRFTISRDNAKNSLYLQMNRLRADDTAVYFCARDSDWGGDILTGSSHIFDNWGQGTVVTVSS
chain 2: DIQMTQSPSSLSASVGDRVTITCRASQTISSSLNWYHQKPGRAPKLLIYGAISLQSGVPSRFSGSGSGTDFTLTISSLQLEDFATYYCQQSYSAPPTFGGGTKVEIE
B10: BD56-1211 (protein)
chain 1: QVRLVQSGAEVKKPGASVKVSCRASGYTFSNYYVHWVRQAPGQGLEWMGIINPSAGSITYAQKFQGRVTMTSDSSTSTVYLDLSSLRSEDTAVYYCARDIVLIPATSGLDVWGQGTTVTVSS
chain 2: EIVLTQSPATLSLSPGERATLSCRASQSISTYLAWYQQKPGQAPRLLIYDASNRATGIPARFSGSGSGTDFTLTISSLEPDDFAVYYCQQRSNWPRIFTFGPGTKVDIK
B11: BD56-1232 (protein)
chain 1: QVQLVQSGAEVRKPGASVKVSCRASGYAFTNYYIHWVRQAPGQGLEWMGMINPDAGSTSYAQKFQGRVTMTGDSSTSTVYMELSSLRSEDTAVYYCARDIVLIPAASGVDVWGQGTTVTVSS
chain 2: B10 chain 2 with I29V, T31S, Q38H, D81E
B12: BD56-1233 (protein)
chain 1: EVQLVESGGGLVQPGGSLRLSCAASGFSFSTYNMNWVRQAPGKGLEWVSYISSSSTTIYYADSVEGRFTISRDNAKKSLYLQMNSLTAEDAGVYYCARHSGRQSHYYYGMDVWGQGTTVTVSS
chain 2: DIQMTQSPSSLSASVGDRVTITCRASQSIYSYLNWYQQKPGKAPSLLIYGASSLQSGVPSRFSGSGSGTDFTLSISGLRREDFATYYCQQSFSTPPTFGQGTTVEVK

What was measured:
Assay in all cases: pseudovirus neutralization IC50; higher = weaker neutralization
[1] = molecular target: SARS-CoV-2 Omicron BA.1 spike pseudovirus
Method: (§1)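 Single-round VSV luciferase pseudovirus mixed with antibody dilutions for 1 h and put on Huh-7 cells for about a day; IC50 from the dose curve.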

[2] = molecular target: SARS-CoV-2 Omicron BA.2 spike pseudovirus
Method: as §1

[3] = molecular target: SARS-CoV-2 Omicron BA.2.75 spike pseudovirus
Method: as §1

[4] = molecular target: SARS-CoV-2 Omicron BA.5 spike pseudovirus
Method: as §1

[5] = molecular target: SARS-CoV-2 Omicron BQ.1.1 spike pseudovirus
Method: as §1

[6] = molecular target: SARS-CoV-2 Omicron XBB spike pseudovirus
Method: as §1

[7] = molecular target: SARS-CoV-2 early D614G spike pseudovirus
Method: as §1

Binder | pseudovirus neutralization IC50 [1] [µg/mL] | pseudovirus neutralization IC50 [2] [µg/mL] | pseudovirus neutralization IC50 [3] [µg/mL] | pseudovirus neutralization IC50 [4] [µg/mL] | pseudovirus neutralization IC50 [5] [µg/mL] | pseudovirus neutralization IC50 [6] [µg/mL] | pseudovirus neutralization IC50 [7] [µg/mL]
B1 | 0.000615 | 0.00104 | 0.383 | 0.00307 | 0.869 | 2.61 | 0.12
B2 | 3.85 | 3.93 | 3.1 | 3.13 | 3.21 | 3.25 | > 10
B3 | > 10 | > 10 | > 10 | > 10 | > 10 | > 10 | > 10
B4 | > 10 | > 10 | > 10 | > 10 | > 10 | > 10 | > 10
B5 | 0.000717 | 0.0013 | 0.00161 | 0.000938 | 1.98 | 1.82 | 1.9
B6 | > 10 | > 10 | > 10 | > 10 | > 10 | > 10 | > 10
B7 | > 10 | > 10 | > 10 | > 10 | > 10 | > 10 | 0.408
B8 | > 10 | > 10 | > 10 | > 10 | > 10 | > 10 | > 10
B9 | > 10 | > 10 | > 10 | > 10 | > 10 | > 10 | > 10
B10 | 1.25 | > 10 | > 10 | > 10 | > 10 | > 10 | > 10
B11 | > 10 | > 10 | > 10 | > 10 | > 10 | > 10 | > 10
B12 | > 10 | > 10 | > 10 | > 10 | > 10 | > 10 | > 10
